Assay: collision cross section in nitrogen (drift tube, single-field); higher = larger gas-phase ion size
Conditions: ion source: ESI, ion mode: Positive
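Further: chemical standards at 10 µM analysed by drift tube IMS-QTOF MS in about 3.95 torr nitrogen, mean of duplicate injections differing ≤1%, mass error below 10 ppm.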

CCCCOP(=O)(OCCCC)OCCCC [Tributyl phosphate]
collision cross section in nitrogen (ion type: [M+H]): 156.9 Å²
collision cross section in nitrogen (ion type: [M+Na]): 184.6 Å²

— the supplement of paper PMC12317010
